Source: patent publication EP1832653A1

Target: monoclonal antibody M75 (MAb M75), secreted from the hybridoma VU-M75, ATCC HB 11128
Test: competition ELISA with M75 on immobilized GST-MN

“complete MN/CA IX+ protein purified from Vero cells infected with vaccinia virus containing the complete coding region of MN/CA IX (from UniProt Q16790 38-459) (enzyme)” gave a fold more active than the smallest serologically active peptide (molar concentration) of 1.5e+08 x and a fold more active than the smallest serologically active peptide (weight/volume concentration) of 100000 x.
